The structures appear in SMILES notation. This is a selection; strong and weak results do not stand in their true shares. Calls of active or inactive are those of the source. Cut-off read from the data, not from the text of the source: active = inhibition above about 50%; inactive = the rest.

The assay concerns the target Gag-Pol polyprotein (Human immunodeficiency virus type 1 group M subtype B (isolate HXB2)) (UniProt P04585). Description: RNase H inhibition, HIV 1 Gag Pol polyprotein, FRET biochemical assay, screening (AID 372). Conditions: HIV-1 RT RNase H, FRET RNA/DNA substrate fluorescence; at 10 µM; active compounds read high.
Usually inhibition stands for the drop in the measured response relative to a control, in per cent. In the case of `O=C(NC(SC1=NCCS1)C(Cl)(Cl)Cl)c1ccc(I)cc1` (stereo not drawn), the inhibition is inactive: 7%.

Regarding `CC(C)OP(=O)(OC(C)C)C(=O)c1ccc(F)cc1`, the inhibition is inactive: 10%.

For the compound `O=[N+]([O-])c1cccc(-c2no[n+]([O-])c2-c2cccc([N+](=O)[O-])c2)c1`, the inhibition is inactive: 27%.

Take `O=C(CF)NC(Sc1ccc(Cl)cc1)C(Cl)(Cl)Cl` (stereo not drawn): the inhibition is inactive: 3%.

As for `CCCOP(=O)(OCCC)O/C(C)=C/SC#N`, the inhibition was inactive: 6%.

Turning to `COC(=O)c1ccc(OP(=O)(Oc2ccc(Cl)cc2C)SCC(C)C)cc1` (stereo not drawn), the inhibition is inactive: 9%.

Take `CC(C)OP(=O)(OC(C)C)C(=O)c1ccccc1Cl`: the inhibition is inactive: 17%.

For the compound `Cc1ccc(SC(NC(=O)c2ccccc2)C(Cl)Cl)cc1` (stereo not drawn), the inhibition is inactive: 6%.

Turning to `Cc1cc(C)nc(SC(NC(=O)c2ccccc2)C(Cl)(Cl)Cl)n1` (stereo not drawn), the inhibition was inactive: 2%.

On to `O=C(NC(Sc1ccc(Cl)cc1)C(Cl)(Cl)Cl)c1ccc([N+](=O)[O-])cc1` (stereo not drawn), for which the inhibition was inactive: 27%.

For the compound `COC(=O)NC(Sc1ccc(Cl)cc1)C(Cl)Cl` (stereo not drawn), the inhibition was inactive: 0%.

For `O=CNC(Sc1nc2ccccc2o1)C(Cl)(Cl)Cl` (stereo not drawn), the inhibition is inactive: 13%.

Turning to `CCCCSP(=O)(OCC(C)C)OCC(C)C`, the inhibition is inactive: 4%.

On to `CC(C)OP(=O)(OC(C)C)N1CCCCC1`, for which the inhibition is inactive: 4%.

With `CCOC(=O)NC(Sc1nc2ccccc2o1)C(Cl)(Cl)Cl` (stereo not drawn), the inhibition is inactive: 2%.

For `CCOP(=O)(OCC)SCC(=O)NCCC(=O)O`, the inhibition was inactive: 7%.

In the case of `CCCCOP(=O)(OCCCC)SC`, the inhibition was inactive: 15%.

Regarding `Cc1c2non([O-])c-2c(C)[n+](=O)[n+]1[O-]`, the inhibition was inactive: 15%.

The record behind these values is PubChem BioAssay AID372 (MTDP, 2006).
